Laboratory results as given in PubChem BioAssay AID624415 (National Center for Advancing Translational Sciences (NCATS), 2012).
The list shows a part of the results, in another mix than the full data. Active and inactive are the calls of the source. Cut-off read from the data, not from the text of the source: active = activity change below about -50%; inconclusive = between about -30% and that limit; inactive = weaker than that.

By UniProt entry, the sequences of proteins in these tests, tags left out.
UniProt Q9GZU1, whole entry: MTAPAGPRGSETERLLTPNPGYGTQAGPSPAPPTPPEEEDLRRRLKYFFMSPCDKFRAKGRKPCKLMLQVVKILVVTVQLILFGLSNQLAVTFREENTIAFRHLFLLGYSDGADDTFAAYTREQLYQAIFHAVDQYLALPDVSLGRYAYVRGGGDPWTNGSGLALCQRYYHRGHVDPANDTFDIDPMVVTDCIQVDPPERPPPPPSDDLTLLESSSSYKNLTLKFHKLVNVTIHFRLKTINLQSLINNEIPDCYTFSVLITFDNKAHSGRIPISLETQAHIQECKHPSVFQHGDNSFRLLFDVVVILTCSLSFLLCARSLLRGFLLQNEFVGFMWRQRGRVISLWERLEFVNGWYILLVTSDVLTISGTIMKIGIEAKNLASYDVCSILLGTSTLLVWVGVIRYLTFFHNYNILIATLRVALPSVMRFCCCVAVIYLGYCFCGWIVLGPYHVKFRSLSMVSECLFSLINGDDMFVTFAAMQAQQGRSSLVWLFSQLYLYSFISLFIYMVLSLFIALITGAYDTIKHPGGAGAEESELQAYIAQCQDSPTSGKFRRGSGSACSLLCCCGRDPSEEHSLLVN

Target: Mucolipin-1 (Homo sapiens) (UniProt Q9GZU1)
Experiment: qHTS for Inhibitors of the Human Mucolipin Transient Receptor Potential 1 (TRPML1);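 note: stimulus is agonist 54-4 at its EC80 concentration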
Settings: TRPML1-inducible cells, Ca2+ dye fluorescence, FDSS; active compounds read low; inhibition of EC80 agonist-evoked calcium signal
Text: Mutations of human Mucolipin transient receptor potential 1 (TRPML1) cause type IV mucolipidosis (ML4), a devastating neurodegenerative disease in young children. […] Currently, there is no treatment for ML4. […] Under physiological conditions, TRPMLs regulate membrane trafficking by transducing information about PI(3,5)P2 levels into changes in juxtaorganellar Ca2+, thereby triggering membrane fusion/fission events in the late endocytic pathways (endolysosomal trafficking). In addition, TRPML1 mediates release of Fe2+ from late endosomes and lysosomes, which is essential for cellular iron metabolism. Thus, impaired ion (Ca2+ and Fe2+) homeostasis underlies lysosomal dysfunction and ML4 phenotypes. In ML4 cells, the problem is twofold. First, defective Ca2+-dependent membrane trafficking due to TRPML1-deficiency causes accumulation of lipids and other bio-materials in the lysosome. The second strike comes from the lysosomal iron overload (due to impairment of TRPML1's Fe2+ conductivity), which converts the accumulated materials into the nondegradable (resistant to lysosomal degradation) lipofuscin (also called aging pigment) in the lysosome. Lipofuscin accumulation dramatically compromises the functions of lysosomes.
Niemann-Pick type C (NPC) disease is another lysosome storage disease (LSD) with severe neurodegeneration during the childhood. Currently, there is no cure for NPC. […] Thus, TRPML1 is likely to be an essential regulator of lysosome ion homeostasis. We specifically hypothesize that stimulating TRPML1's Fe2+/Ca2+ channel activity in the lysosome using synthetic agonists can alleviate neurodegeneration associated with ML4 or NPC.
To this end, a high throughput screen was developed in a miniaturized format to screen against the Molecular Libraries Small Molecule Repository (MLSMR) to find small molecules that act either as inhibitors or agonist against the TRPML1 channel.
NIH Chemical Genomics Center [NCGC]
NIH Molecular Libraries Probe Centers Network [MLPCN]
Assay Submitter (PI): Haoxing Xu, University of Michigan Ann Arbor
TRPML1-DL cells are dissociated from flasks, counted and, brought up to a density of 500,000 cells per mL of media containing a 1X Tet inducer. Using a Multidrop Combi, 3 uL of this cell solution is dispensed to each well of a 1536 TC treated, black, clear bottom hi base plate for a final cell density of 1,500 cells per well. The assay plates are incubated overnight (approximately 16 hours) at 37 degrees C and 5% CO2. Using a Multidrop Combi, 2 uL of ABD Ca8 no wash dye plus quencher is added to each well. The assay plates incubate at room temperature in the dark for 45-90 minutes. The assay plate is read on the FDSS using the following protocol: 10 second baseline read, 23 nL of compounds and controls are added using 1536 pintool, agonist read for 110 seconds, 1 uL EC80 addition (4 uM final 54-4 diluted in media), antagonist read for 110 seconds.
% is set by controls: 0 for no effect and ±100 for the full control effect.

| SMILES | activity change, negative = inhibition |
| --- | --- |
| CN(C(=O)Cc1ccc(Cl)c(Cl)c1)[C@H]1CCCC[C@H]1N1CCCC1 | inactive: 14.9% |
| Cc1ccc(N/C(=N/P(=O)(N2CCOCC2)N2CCOCC2)N2CCOCC2)cc1 | inactive: -7.93% |
| NC(=O)c1cc([N+](=O)[O-])cc([N+](=O)[O-])c1N | inactive: 1.09% |
| CCc1ccc(OP(C)(=O)O)cc1 | inactive: 14.5% |
| CP(=O)(Nc1ccccn1)Oc1ccccc1 (stereo unspecified) | inactive: 10.2% |
| COc1ccccc1OP(C)(=O)Nc1ccc(C)cc1C (stereo unspecified) | inactive: -15.7% |
| Oc1ccccc1CNc1ccccn1 | inactive: 6.31% |
| O=C(NC(Sc1ccncn1)C(Cl)(Cl)Cl)c1ccccc1 (stereo unspecified) | inactive: 5.23% |
| O=[N+]([O-])c1cc([N+](=O)[O-])c(Nc2ccccn2)c([N+](=O)[O-])c1 | inactive: 8.4% |
| CC(C)CC(=O)NC(Sc1ccc(Cl)cc1)C(Cl)(Cl)Cl (stereo unspecified) | inactive: -8.36% |
| Nc1cc(N)c2nonc2c1[N+](=O)[O-] | inactive: 12.1% |
| Cc1c(NP(C)(=O)Oc2ccc(C(C)C)cc2)c(=O)n(-c2ccccc2)n1C (stereo unspecified) | inactive: 4.58% |
| COc1ccc(OP(C)(=O)Nc2ccccc2Br)cc1 (stereo unspecified) | inactive: 2.65% |
| CCOP(=O)(Nc1ccccc1)OCC | inactive: -2.39% |
| Cc1cc(SC(NC(=O)c2ccc(F)cc2)C(Cl)(Cl)Cl)ncn1 (stereo unspecified) | inactive: -9.17% |
| CN(C(=O)Cc1ccc(Cl)c(Cl)c1)[C@H]1CCCC[C@@H]1N1CCCC1 | inactive: -12.6% |
| Cc1ccc(NP(=O)(Oc2ccccc2F)Oc2ccccc2F)nc1 | inactive: 19.3% |
| COc1ccccc1OP(C)(=O)Nc1ccc(C)c(C)c1 (stereo unspecified) | inactive: -19% |
| CN(C)P(=O)(N(C)C)n1c(Nc2ccccc2)nnc1-c1ccccc1 | inactive: 27.2% |
| Cc1cc(C)cc(OP(C)(=O)Nc2cccc(C(F)(F)F)c2)c1 (stereo unspecified) | inactive: -4.95% |
| O=P(Nc1nc2ccc(Cl)cc2s1)(c1ccccc1)c1ccccc1 | inactive: -19.9% |
| O=C(O)c1ccccc1[As](=O)(O)O | inactive: 32% |

| SMILES | activity change, negative = inhibition |
| --- | --- |
| CC(=O)Nc1ccc([As](=O)(O)O)cc1 | inactive: -8.67% |
| CCCC1OP(N)(=O)OCC1CC (stereo unspecified) | inactive: -4.87% |
| Nc1cccc2ccc([As](=O)(O)O)cc12 | inactive: 20.1% |
| CP(=O)(OCCOc1ccccc1)OCCOc1ccccc1 | inactive: -14.1% |
| CCCCCCCCCCCCCCCC1C[N+](C)(C)CCOP(C)(=O)O1 (stereo unspecified) | inactive: -0.604% |
| CP(=O)(Nc1ccc(Cl)cc1Cl)Oc1ccccc1 (stereo unspecified) | inactive: -5.81% |
| CCN(N=Nc1nonc1N)c1nonc1N | inactive: -3.11% |
| CC(C)(C)c1ccc(OP(C)(=O)Nc2ccc(SC(F)(F)F)cc2)cc1 (stereo unspecified) | inactive: 10.2% |
| Cc1ccc(OP(=O)(Nc2ccc([N+](=O)[O-])cn2)Oc2ccc(C)cc2)cc1 | inactive: 28.6% |
| Cc1cccc(C)c1OP(C)(N)=O (stereo unspecified) | inactive: 15.8% |
| Cc1ccc2nc3c(c(C)c2c1)CC(C(Cl)Cl)S3 (stereo unspecified) | inactive: 3.97% |
| O=[N+]([O-])c1ccc2c(c1)C=Nc1ccccc1O2 | inactive: -1.68% |
| O=[N+]([O-])c1cc([N+](=O)[O-])c(Nc2cccnc2)c([N+](=O)[O-])c1 | inactive: 22.4% |
| C[As](=O)(O)c1cccc(C(=O)O)c1 | inactive: 7.44% |
| O=[As](O)(c1ccc(O)cc1)c1ccccc1O | inactive: 19.8% |
| COc1cc(C(=O)NCC2(N3CCOCC3)CCCCC2)ccc1OCC(C)C | inactive: 7.95% |
| O=[N+]([O-])c1ccc(-c2cc([N+](=O)[O-])c(O)c([N+](=O)[O-])c2)cc1 | inactive: -9.47% |
| CCN(CC)C(=S)SC(NC=O)C(Cl)(Cl)Cl (stereo unspecified) | inactive: -10.1% |
| O=C(OC1CN2CCC1CC2)c1cccc2[nH]cnc12 (stereo unspecified) | inactive: -24.9% |
| CC(C)NC(=O)NP(=O)(Oc1ccccc1)Oc1ccccc1 | inactive: -11.8% |
| COc1ccccc1OP(C)(=O)Nc1cc(Cl)ccc1C (stereo unspecified) | inactive: -0.756% |
| O=[N+]([O-])c1cc([N+](=O)[O-])c(-c2ccn[nH]2)s1 | inactive: -11.9% |

| SMILES | activity change, negative = inhibition |
| --- | --- |
| COc1ccc(OP(C)(=O)Nc2cccc(F)c2)cc1 (stereo unspecified) | inactive: 3.93% |
| Cc1cc(C)cc(OP(C)(N)=O)c1 (stereo unspecified) | inactive: 10.1% |
| CCOC(=O)c1ccc(NP(C)(=O)Oc2ccccc2)cc1 (stereo unspecified) | inactive: 5.59% |
| ClCCSc1nnc(-c2cccnc2)o1 | inactive: 2.34% |
| COc1ccccc1OP(C)(=O)Nc1ccc(C)cc1 (stereo unspecified) | inactive: 23% |
| Cc1ccc(NP(C)(=O)Oc2ccccc2)c(C)c1 (stereo unspecified) | inactive: -2.54% |
| CC(C)c1ccc(OP(=O)(Nc2ccccn2)Oc2ccccc2F)cc1 (stereo unspecified) | inactive: 21.3% |
| COC(=O)C1(C)COP(=O)(N2CCCCCC2)OC1 (stereo unspecified) | inactive: -6.94% |
| O=P1(N(CCCl)CCCl)Nc2ccccc2N1 | inactive: -13.9% |
| O=P1(N(CCCl)CCCl)OCCCN1CCCl (stereo unspecified) | inactive: 18.4% |
| COc1ccc2nc(NP(=O)(c3ccccc3)c3ccccc3)sc2c1 | inactive: -15.8% |
| COc1cc(I)ccc1[As](=O)(O)O | inactive: 19.9% |
| Cc1c2c(nc3ccccc13)SC(C(Cl)Cl)C2 (stereo unspecified) | inactive: 58% |
| O=C(OC1CN2CCC1CC2)C12CC3CC(CC(C3)C1)C2 (stereo unspecified) | inactive: 14.5% |
| Cc1cc(=O)[nH]c(N[N+](=O)[O-])n1 | inactive: -2.58% |
| CCN(CC)CCCOC(=O)C(O)(c1ccccc1)c1ccccc1 | inactive: 11.3% |
| O=[N+]([O-])c1cc(Oc2ccc([N+](=O)[O-])cc2C(F)(F)F)cc([N+](=O)[O-])c1 | inactive: -17.4% |
| COc1ccc(N/C(=N/P(=O)(N2CCOCC2)N2CCOCC2)N2CCOCC2)cc1 | inactive: -12.5% |
| CCc1ccc(OP(C)(=O)N2CCN(c3ccc([N+](=O)[O-])cc3)CC2)cc1 (stereo unspecified) | inactive: 12.7% |
| CP(=O)(NC(=O)Nc1ccccc1)Oc1ccccc1 (stereo unspecified) | inactive: 4.36% |
| O=C(COc1ccccc1)OC1CN2CCC1CC2 (stereo unspecified) | inactive: 2.7% |
| O=C(Nc1ccncc1[N+](=O)[O-])c1ccc([N+](=O)[O-])cc1[N+](=O)[O-] | inactive: 6.52% |
